Tested on: equine cecal contents
Test: in vitro model of equine hindgut, carbohydrate overload: pH and amine production

Substance: cornstarch
- concentrations of the caecal-derived amines phenylethylamine, isoamylamine, putriscine and cadaverine (end of 24 hour incubation, carbohydrate 1 g/100 mL, compared to control, HPLC): significantly greater concentrations
- pH in the model system (incubated 24 h with carbohydrate 1 g/100 mL, compared with control without added carbohydrate): fell significantly

Reference: US20090232853A1, “TREATMENT OF LAMINITIS” (priority 2005, published 2009)
